Converted amounts (≈) assume the structure as drawn. “And” between values parts separate entries of the source, which are not always exact repeats. Identical values can stand only once. Like-named read-outs stand apart in the source and are kept apart here.
What was measured:
[1] = target: T1, OXA-48:P68A,Y211S (Klebsiella pneumoniae, UniProt Q6XEC0, P68A/Y211S); experiment: Steady-state enzyme kinetics, OXA-48:P68A,Y211S; format: biochemical; conditions: for kcat / Km: substrate hydrolysis, 25°C, pH 7.0, error = 95% CI
[2] = target: T1, OXA-48:P68A,Y211S; experiment: IC50 with nitrocefin as reporter substrate, OXA-48:P68A,Y211S; format: biochemical
[3] = system: MP106 (E. coli TOP10 expressing OXA-48:P68A,Y211S); experiment: microbe, parasite or virus in culture; format: cell-based; conditions: Escherichia coli; Table 3; MP106, OXA-48:P68A,Y211S in pCR-blunt II TOPO
[4] = system: E. coli TOP10 expressing OXA-48:P68A and OXA-48:P68A,Y211S (MP105, MP106); format: cell-based
[5] = system: OXA-48:P68A and OXA-48:P68A,Y211S; format: biochemical; conditions: both substitutions compared to native OXA-48

CC1(C)S[C@@H]2[C@H](NC(=O)[C@H](N)c3ccccc3)C(=O)N2[C@H]1C(=O)O [AMP, ampicillin]
kcat [1]: 18 ± 1 s⁻¹ | Km ([1]; read-out: Km): 211 ± 26 µM

NC(=O)[C@@H]1CC[C@@H]2CN1C(=O)N2OS(=O)(=O)O [Avibactam, avibactam]
decrease in inhibitory activity ([2]; P68A,Y211S compared to native OXA-48, listed as AVI): > 5 fold and 5 fold

CC(C)(O/N=C(\C(=O)N[C@@H]1C(=O)N2C(C(=O)[O-])=C(C[n+]3ccccc3)CS[C@H]12)c1csc(N)n1)C(=O)O [CAZ, ceftazidime]
MIC [3]: 8 µg/mL (≈ 14.6 µM) | increased catalytic efficiency (kcat/Km) / hydrolysis ([1]; P68A,Y211S compared to native OXA-48): > 20 fold and 20 fold | Km [1]: 190 ± 40 µM | kcat [1]: 42 ± 5 s⁻¹

C[C@@H](O)[C@H]1C(=O)N2C(C(=O)O)=C(S[C@@H]3CN[C@H](CNS(N)(=O)=O)C3)[C@H](C)[C@H]12 [DOR, doripenem]
MIC [3]: 0.03 µg/mL (≈ 0.0713 µM) | change in MIC ([4]; both mutants versus native OXA-48): No change

C[C@@H](O)[C@H]1C(=O)N2C(C(=O)O)=C(S[C@@H]3CN[C@H](C(=O)Nc4cccc(C(=O)O)c4)C3)[C@H](C)[C@H]12 [ETP, ertapenem]
MIC [3]: 0.06 µg/mL (≈ 0.126 µM) | MIC decrease ([4]; {}): 4-16 fold

CO/N=C(\C(=O)N[C@@H]1C(=O)N2C(C(=O)[O-])=C(C[N+]3(C)CCCC3)CS[C@H]12)c1csc(N)n1 [FEP, cefepime]
Km [1]: 1460 µM | change in MIC ([4]; {}): ≤ 2 fold dilution step | change in catalytic efficiency [5]: No change

CO/N=C(\C(=O)N[C@@H]1C(=O)N2C(C(=O)O)=C(COC(C)=O)CS[C@H]12)c1csc(N)n1 [FOT, cefotaxime]
change in MIC ([4]; {}): ≤ 2 fold dilution step

C[C@@H](O)[C@H]1C(=O)N2C(C(=O)O)=C(SCCN=CN)C[C@H]12 [IMI, imipenem]
Km [1]: 14 ± 3 µM | kcat [1]: 0.57 ± 0.04 s⁻¹ | MIC decrease ([4]; {}): 4-16 fold

C[C@@H](O)[C@H]1C(=O)N2C(C(=O)O)=C(S[C@@H]3CN[C@H](C(=O)N(C)C)C3)[C@H](C)[C@H]12 [MEM, meropenem]
MIC [3]: 0.03 µg/mL (≈ 0.0782 µM) | kcat [1]: (2 ± 0.2) × 10^−3 s^−1 | MIC decrease ([4]; {}): 4-16 fold

O=C(Cc1cccs1)N[C@@H]1C(=O)N2C(C(=O)O)=C(/C=C/c3ccc([N+](=O)[O-])cc3[N+](=O)[O-])CS[C@H]12 [NIT, nitrocefin]
kcat [1]: 12 ± 1 s⁻¹ | Km ([1]; read-out: Km): 63 ± 9 µM

CCN1CCN(C(=O)N[C@@H](C(=O)N[C@@H]2C(=O)N3[C@@H]2SC(C)(C)[C@@H]3C(=O)O)c2ccccc2)C(=O)C1=O [PIP, piperacillin]
Km ([1]; read-out: Km): 155 ± 38 µM

CO[C@@]1(NC(=O)C(C(=O)O)c2ccsc2)C(=O)N2[C@@H](C(=O)O)C(C)(C)S[C@@H]21 (stereo partly drawn) [TRM, temocillin]
MIC decrease ([4]; {}): 4-8 fold

C[C@]1(Cn2ccnn2)[C@H](C(=O)O)N2C(=O)C[C@H]2S1(=O)=O [Tazobactam, tazobactam]
reduction in the IC50 ([2]; P68A,Y211S compared to native OXA-48, 5 min): > 3 fold | IC50 ([2]; nitrocefin reporter substrate, enzyme and inhibitor incubated 5 min, error = 95% CI): 31 ± 5 µM

Source: PMC6437269, “OXA-48-Mediated Ceftazidime-Avibactam Resistance Is Associated with Evolutionary Trade-Offs” (mSphere, 2019)
